Measurements published in patent US9815864B2, “Substituted nucleosides, nucleotides and analogs thereof” (Alios BioPharma, Inc., priority 2013, dated 2017).

By UniProt entry, the sequences of proteins in these tests, tags left out. Residues count along the entry.
UniProt P54634, 1190-1699 limits assumed: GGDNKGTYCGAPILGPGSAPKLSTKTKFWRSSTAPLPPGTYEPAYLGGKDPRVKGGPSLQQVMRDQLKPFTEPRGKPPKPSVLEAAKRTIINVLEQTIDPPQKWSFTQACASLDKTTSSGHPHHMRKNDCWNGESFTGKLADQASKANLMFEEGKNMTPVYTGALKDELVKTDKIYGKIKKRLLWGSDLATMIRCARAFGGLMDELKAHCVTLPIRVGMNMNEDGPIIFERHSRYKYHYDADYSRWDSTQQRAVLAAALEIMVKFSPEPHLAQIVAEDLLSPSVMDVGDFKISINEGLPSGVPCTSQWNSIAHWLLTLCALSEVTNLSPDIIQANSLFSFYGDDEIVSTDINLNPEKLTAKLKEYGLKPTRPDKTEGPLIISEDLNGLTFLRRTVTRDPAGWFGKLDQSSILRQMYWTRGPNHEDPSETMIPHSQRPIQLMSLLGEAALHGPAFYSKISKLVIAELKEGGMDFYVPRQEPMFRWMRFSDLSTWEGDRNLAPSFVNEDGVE

Target: Norovirus polymerase (NoVpol, genotype II) (Lordsdale virus, UniProt P54634)
Conditions: 50 nM recombinant enzyme, 2.5 hours at 30° C.

C[C@@]1(O)[C@H](O)[C@@](CCl)(COP(=O)(O)OP(=O)(O)OP(=O)(O)O)O[C@H]1n1ccc(N)nc1=O
IC50: 1 to 10 µM

[N-]=[N+]=NC[C@]1(COP(=O)(O)OP(=O)(O)OP(=O)(O)O)O[C@@H](n2cnc3c(=O)[nH]c(N)nc32)[C@H](F)[C@@H]1O
IC50: 1 to 10 µM
